Numbering of substitutions follows the chain as printed.
B1: 39IEEGT-^48ARGDN^53P-^67NGLY^71G (ligand)
chain: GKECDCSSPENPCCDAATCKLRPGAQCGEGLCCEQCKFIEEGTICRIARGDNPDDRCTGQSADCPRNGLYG
B2: KKK^42A^43T-^48ARGDN^53P-^67NGLY^71G (ligand)
chain: B1 chain with I39K, E40K, E41K, G42A
B3: ^39AKKR^34T-^48ARGDN^53P-^67NGLY^71G (ligand)
chain: B1 chain with I39A, E40K, E41K, G42R
B4: KKKR^43A-^48ARGDN^53P-^67NGLY^71G (ligand)
chain: B1 chain with I39K, E40K, E41K, G42R, T43A
B5: 39KKKRT-^48ARGDN^53P-^67NGLY^71G (ligand)
chain: B1 chain with I39K, E40K, E41K, G42R
B6: ^39SRAGKICR-^47RARGDN^53P-^67NGLY^71G (ligand)
chain: B1 chain with I39S, E40R, E41A, T43K, I47R
B7: ^9KKKRT-^46ARARGDN^53P-^67NGLY^71G (ligand)
chain: B1 chain with I39K, E40K, E41K, G42R, R46A, I47R
B8: 39LKEGT-^48ARGDN^53P-^67NGLY^71G (ligand)
chain: B1 chain with I39L, E40K
B9: K^40AKR^43T-^48ARGDN^53P-^67NGLY^71G (ligand)
chain: B1 chain with I39K, E40A, E41K, G42R
B10: ^39KKKRTICR-^47RARGDN^53P-^67NGLY^71G (ligand)
chain: B1 chain with I39K, E40K, E41K, G42R, I47R
B11: 39SRAGK-^48ARGDN^53P-^67NGLY^71G (ligand)
chain: B1 chain with I39S, E40R, E41A, T43K
B12: ^39KAKRA^43-^48ARGDN^53P-^67NGLY^71G (ligand)
chain: B1 chain with I39K, E40A, E41K, G42R, T43A
B13: ^39SKAGT^43-^48ARGDN^53P-^67NGLY^71G (ligand)
chain: B1 chain with I39S, E40K, E41A
B14: Disintegrin variant SEQ ID NO: 134 (Table 8 no. 18) (ligand)
chain: B1 chain with I39M, E40K, E41K
B15: Disintegrin variant SEQ ID NO: 347 (Table 8 no. 4) (ligand)
chain: B1 chain with I39S, E40R, E41A, T43K
B16: Disintegrin variant SEQ ID NO: 144 (Table 8 no. 14) (ligand)
chain: B1 chain with I39S, E40K, E41A
B17: Disintegrin variant SEQ ID NO: 140 (Table 8 no. 10) (ligand)
chain: B1 chain with I39K, E40K, E41A, G42R
B18: Disintegrin variant SEQ ID NO: 130 (Table 8 no. 6) (ligand)
chain: B1 chain with I39S, E40R, E41A, T43K, I47R
B19: Disintegrin variant SEQ ID NO: 141 (Table 8 no. 11) (ligand)
chain: B1 chain with I39K, E40K, E41K, G42A
B20: Disintegrin variant SEQ ID NO: 139 (Table 8 no. 9) (ligand)
chain: B1 chain with I39K, E40A, E41K, G42R
B21: Disintegrin variant Table 8 no. 20 (printed SEQ ID NO: 132) (ligand)
chain: B1 chain with I39K, E40K, E41K, G42R, I47R
B22: Disintegrin variant SEQ ID NO: 137 (Table 8 no. 17) (ligand)
chain: B1 chain with I39L, E40K
B23: Disintegrin variant SEQ ID NO: 142 (Table 8 no. 12) (ligand)
chain: B1 chain with I39K, E40K, E41K, G42R, T43A
B24: Disintegrin variant SEQ ID NO: 143 (Table 8 no. 13) (ligand)
chain: B1 chain with I39K, E40A, E41K, G42R, T43A
B25: Disintegrin variant Table 8 no. 19 (printed SEQ ID NO: 130; linker SRAGK) (ligand)
chain: B1 chain with I39S, E40R, E41A, T43K, I47R
B26: Disintegrin variant SEQ ID NO: 135 (Table 8 no. 15) (ligand)
chain: B1 chain
B27: Disintegrin variant SEQ ID NO: 132 (Table 8 no. 7) (ligand)
chain: B1 chain with I39K, E40K, E41K, G42R, I47R
B28: Disintegrin variant SEQ ID NO: 136 (Table 8 no. 16) (ligand)
chain: B1 chain with I39K, E40G, E41A, T43K
B29: Disintegrin variant SEQ ID NO: 138 (Table 8 no. 8) (ligand)
chain: B1 chain with I39A, E40K, E41K, G42R
B30: Disintegrin variant SEQ ID NO: 131 (Table 8 no. 5 and no. 21) (ligand)
chain: B1 chain with I39K, E40K, E41K, G42R
B31: Disintegrin variant SEQ ID NO: 128 (Table 8 no. 2) (ligand)
chain: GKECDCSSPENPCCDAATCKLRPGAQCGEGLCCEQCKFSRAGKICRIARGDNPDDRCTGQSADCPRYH
B32: Disintegrin variant SEQ ID NO: 129 (Table 8 no. 3) (ligand)
chain: B31 chain with S39K, R40K, A41K, G42R, K43T
B33: ^39KKART-^46ARGRGDDL-^66GLYG (ligand)
chain: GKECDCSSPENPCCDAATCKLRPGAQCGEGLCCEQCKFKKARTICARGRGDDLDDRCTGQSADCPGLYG
B34: ^39SRAGK-^46RIARGDDL-^66RYH (ligand)
chain: B31 chain with N52D, P53L
B35: ^39KKART-^46ARGRGDNP-^66GLYG (KG-P) (ligand)
chain: B33 chain with D52N, L53P
B36: ^39KKART-^46 ARGRGDNP-^66YLYG (ligand)
chain: B33 chain with D52N, L53P, G66Y
B37: ^39KKART-^46 ARGRGDNP-^66DLYG (ligand)
chain: B33 chain with D52N, L53P, G66D
B38: ^39KKART-^46 ARGRGDNP-^66ELYG (ligand)
chain: B33 chain with D52N, L53P, G66E
B39: ^39KKART-^46ARGRGDNP-^66RWNDL (KG-WN) (ligand)
chain: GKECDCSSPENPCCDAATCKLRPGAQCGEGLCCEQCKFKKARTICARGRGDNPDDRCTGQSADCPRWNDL
B40: ^39KKART-^46ARGRGDNP-^66RYH (KG, AR-NP) (ligand)
chain: B31 chain with S39K, R40K, G42R, K43T, R46A, I47R, A48G

Each binder was assayed against T1, integrin αIIbβ3 on platelets of healthy donors (UniProt P08514 32-1039; P05106 27-788) (assay: cell-based or functional assay).

In order of rising “IC50, Platelet Aggregation” value:
1. B3  0.132 µM
2. B2  0.141 µM
3. B7  0.148 µM
4. B10  0.153 µM
5. B12  0.157 µM
6. B5  0.16 µM
7. B13  0.175 µM
8. B8  0.188 µM
9. B9  0.19 µM
10. B4  0.192 µM
11. B11  0.195 µM
12. B1  0.206 µM
13. B6  0.234 µM

The binders below were run against integrin αvβ3 (on CHO-αvβ3 cells) (UniProt P06756 31-1048; P05106 27-788) (assay: cell-based or functional assay).

B14 was tested, and the “IC50, adhesion of CHO-αvβ3 cells to fibrinogen” value was 0.004 µM.

The binders below were run against integrin αIIbβ3 on platelets of healthy donors (platelet-rich plasma) (UniProt P08514 32-1039; P05106 27-788) (assay: cell-based or functional assay).

In order of falling “Platelet Aggregation, IC50” value:
1. B18  0.234 µM
2. B26  0.206 µM
3. B25  0.2 µM
4. B15  0.195 µM
5. B23  0.192 µM
6. B20  0.19 µM
7. B22  0.188 µM
8. B14  0.178 µM
9. B28  0.176 µM
10. B16  0.175 µM
11. B30  0.16 µM
12. B17  0.158 µM
13. B24  0.157 µM
14. B27  0.153 µM
15. B21  0.148 µM
16. B19  0.141 µM
17. B29  0.132 µM
18. B31  0.125 µM
19. B32  0.0882 µM

These binders were tested against integrin α5β1 (on K562 cells) (human, UniProt P08648 42-1049; P05556 21-798) (assay: cell-based or functional assay).

In order of rising “IC50, adhesion of K562 cells to fibronectin” value:
1. B32  0.01 µM
2. B31  0.04 µM

Biological target: T1, integrin αIIbβ3 on platelets of healthy …
Assay: cell-based or functional assay
Remark: another data set of the same source

In order of falling “IC50, Platelet Aggregation” value:
1. B33  47.3 µM
2. B34  0.455 µM

Biological target: T1, integrin αIIbβ3 on platelets of healthy …
Assay: cell-based or functional assay
Remark: another data set of the same source

B35 was tested, and the “IC50, Platelet Aggregation” value was 35.3 µM.

Biological target: T1, integrin αIIbβ3 on platelets of healthy …
Assay: cell-based or functional assay
Remark: another data set of the same source

In order of rising “IC50, Platelet Aggregation” value:
1. B36  30.3 µM
2. B35  35.3 µM
3. B38  46.1 µM
4. B37  84.7 µM

These binders were tested against T2, integrin αvβ6 on HT-29 cells (human, UniProt P06756 31-1048; P18564 22-788) (assay: cell-based or functional assay).

With B37 the “IC50, adhesion of HT-29 cells to fibronectin” value was 2 µM.

The binders below were run against integrin αIIbβ3 on CHO-αIIbβ3 cells (UniProt P08514 32-1039; P05106 27-788) (assay: cell-based or functional assay).

In order of rising “IC50, adhesion of CHO-αIIbβ3 cells to fibrinogen” value:
1. B39  28 µM
2. B40  37.9 µM

Each binder was assayed against integrin αvβ3 on CHO-αvβ3 cells (UniProt P06756 31-1048; P05106 27-788) (assay: cell-based or functional assay).

B40 was tested, and the “IC50, adhesion of CHO-αvβ3 cells to fibrinogen” value was 0.005 µM.

Biological target: T1, integrin αIIbβ3 on platelets of healthy …
Assay: cell-based or functional assay
Remark: another data set of the same source

In order of falling “IC50, Platelet Aggregation” value:
1. B35  35.3 µM
2. B39  4.53 µM
3. B40  4.48 µM

The binders below were run against integrin αvβ5 on HT-29 cells (human, UniProt P06756 31-1048; P18084 24-799) (assay: cell-based or functional assay).

In order of falling “IC50, adhesion of HT-29 cells to vitronectin” value:
1. B40  0.446 µM
2. B39  0.0437 µM

Biological target: T2, integrin αvβ6 on HT-29 cells
Assay: cell-based or functional assay
Remark: another data set of the same source

In order of rising “IC50, adhesion of HT-29 cells to fibronectin” value:
1. B39  0.108 µM
2. B40  0.317 µM

The binders below were run against integrin α5β1 on K562 cells (human, UniProt P08648 42-1049; P05556 21-798) (assay: cell-based or functional assay).

For B40, the “IC50, adhesion of K562 cells to fibronectin” value was 0.0288 µM.
